Results published in patent US20090099343A1, “Isolation of pathogenic prions” (priority 2005, published 2009).

Target: PrP^Sc, pathogenic prion protein in brain homogenate of RML PrP^Sc+ Balb-c mice (mouse), P04925

Binder	ELISA A405nm [A405nm]
QWNKPSKGKTN [Peptide reagent SEQ ID NO:113]	2.04
QWNKPSKGKTN [Peptide reagent SEQ ID NO:112]	0.974
QWNKPSKGKTN [Peptide reagent SEQ ID NO:109]	0.865
QWNKPSKGKTN [Peptide reagent SEQ ID NO:114]	0.776
